Pooled drug test results. Numbers come from NIAID ChemDB, via PubChem.

Shared fields: cytotoxicity tests; cell line: CEM; read-out: CC50

a–b is a range or a potency band.

Cc1cn([C@@H]2O[C@H](CO[Si](C)(C)C(C)(C)C)[C@@H](O)[C@H]2O[Si](C)(C)C(C)(C)C)c(=O)n(CCCCC(=O)O)c1=O ; result: 22 µM
O=C(NCc1ccc(O)c(O)c1)c1ccc2ccc(C(=O)O)c(O)c2n1 ; method: MTT ; result: >500 µM
COc1ccc2c(c1)C(=O)C(C1=C(Cl)C(=O)c3ccccc3C1=O)=C(Cl)C2=O ; method: MTT ; result: 5.7 µM
CCCS(=O)(=O)Oc1c(OC)cc2ccnc3c2c1N(C)C=C3 ; result: 6 µM
COc1cccc2c1C(=O)C(C1=C(N)C(=O)c3ccccc3C1=O)=C(Cl)C2=O ; method: MTT ; result: 5.7 µM
CNOC(=O)Cn1c(=O)c(C)cn([C@@H]2O[C@H](CO[Si](C)(C)C(C)(C)C)[C@@H](O[Si](C)(C)C(C)(C)C)[C@H]2O)c1=O ; result: 18 µM
O=C1NS(=O)(=O)N(Cc2ccccc2)c2sc(-c3ccccc3)cc21 ; result: >50 µg/mL
CCC(C)[C@@H](C(=O)O)N(C)C(=O)c1ccccc1SSc1ccccc1C(=O)N(C)[C@H](C(=O)O)C(C)CC ; result: >100 µM
COc1ccc2c(c1)C(=O)C(Br)=C(C1=C(O)c3ccccc3C(=O)C1=O)C2=O ; method: MTT ; result: 5.7 µM
O=C1c2cc(-c3ccccc3)sc2N(Cc2ccccc2)S(=O)(=O)N1CCOCCO ; result: 48 µg/mL
[N-]=[N+]=N[C@H]1C[C@H](n2cnc3c(Cl)nc(F)nc32)O[C@@H]1CO ; method: MTS ; result: 13.3 µM
COc1cc(Cc2cnc(/N=C3\C(=O)N(CN4CCCC4)c4ccc(F)cc43)nc2N)cc(OC)c1OC ; method: XTT ; result: 121 µg/mL
CC(C)CC(NC(=O)c1ccccc1SSc1ccccc1C(=O)NC(CC(C)C)C(=O)O)C(=O)O ; result: 130 µM
COc1cc2ccnc3c2c(c1OC)N(CCC(C)C)C=C3 ; result: 16.3 µM
Nc1nc(F)nc2c1ncn2[C@H]1O[C@@H](CO)C=C1F ; result: 19.5 µM
CCC[n+]1ccc2cc(OC)c(OC)c3c2c1C=CN3 ; result: 23.8 µM
Cn1cc(C(=O)O)c(=O)c2cc(F)c(N3CC=C(c4ccccc4)CC3)c(C(F)(F)F)c21 ; method: MTT ; result: 1.8 µM
Cc1cn([C@@H]2O[C@H](COC(=O)C(C)(C)C)[C@@H](O)[C@H]2OC(=O)C(C)(C)C)c(=O)n(CC(=O)O)c1=O ; result: >250 µM
O=C1c2sc(-c3ccccc3)cc2N(COCCO)S(=O)(=O)N1Cc1ccccc1 ; result: 36 µg/mL
Cc1cc(Cl)cc2c1S(=O)(=O)n1ccnc1S2 ; result: >200 µM
COC(=O)Cn1c(=O)c(C)cn([C@@H]2O[C@H](CO[Si](C)(C)C(C)(C)C)[C@@H](O[Si](C)(C)C(C)(C)C)[C@H]2O)c1=O ; result: 13 µM
Nc1nc2c(ncn2[C@@H]2O[C@H](CO)C[C@@H]2F)c(=O)[nH]1 ; result: >53 µM
CC1(C)SCc2nc3ncccc3n21 ; result: 614 µM
CC1(C)N=C(N)N=C(N)N1c1cccc(CCCCOc2ccccc2)c1 ; method: XTT ; result: 1.72 µM
CCCCCCCCCCCN1C=Cc2cc(OC)c(O)c3c2c1cc[n+]3CCCCCCCCCCC ; result: 3.8 µM
O=c1ccn([C@@H]2O[C@@H](CO)C=C2F)c(=O)[nH]1 ; result: >100 µM
Nc1ccn([C@H]2CC[C@@H](CO)O2)c(=O)n1 ; result: 2.5–5.1 µg/mL
Fc1cccc(C2SCc3nc4ncccc4n32)c1 ; result: >132 µM
CCOC(=O)C1=C(C)NC(=O)NC1c1ccccc1 ; result: >5 µM
COc1ccc2c(c1)C(=O)C(C1=C(O)c3ccccc3C(=O)C1=O)=C(I)C2=O ; method: MTT ; result: 9.8 µM
Nc1nccc2c1ncn2[C@@H]1C[C@H](O)[C@@H](O)[C@H]1O ; result: 27 µg/mL
C=Cc1cn([C@H]2C=C[C@@H](OCP(=O)(O)O)O2)c(=O)[nH]c1=O ; result: 96 µg/mL
Cc1cc2c(cc1Cl)SC(C(=O)c1ccccc1)=NS2(=O)=O ; method: XTT ; result: 287.5 µM
Cc1cn([C@H]2C[C@H](F)[C@@H](CO)O2)c(=O)n(C)c1=O ; result: >500 µg/mL
O=C(NCCO)c1ccccc1SSc1ccccc1C(=O)NCCO ; result: 16 µM
CO[C@H]1N([C@H]2C[C@H](F)[C@@H](CO)O2)C(=O)NC(=O)[C@@]1(C)Cl ; method: XTT ; result: >800 µM
[N-]=[N+]=N[C@H]1C[C@H](n2cnc3c(NC4CC4)nc(Cl)nc32)O[C@@H]1CO ; method: MTS ; result: >100 µM
Cc1cc2c(cc1Cl)Sc1nccn1S2(=O)=O ; result: 79.3 µM
COc1nc(F)nc2c1ncn2[C@H]1C[C@H](N=[N+]=[N-])[C@@H](CO)O1 ; method: MTS ; result: >100 µM
Cc1ccc(C(=O)Nc2ccc(S(=O)(=O)O)c3cc(S(=O)(=O)O)cc(S(=O)(=O)O)c23)cc1NC(=O)c1cccc(NC(=O)Nc2cccc(C(=O)Nc3cc(C(=O)Nc4ccc(S(=O)(=O)O)c5cc(S(=O)(=O)O)cc(S(=O)(=O)O)c45)ccc3C)c2)c1 ; result: 115 µM
Cc1cn([C@@H]2O[C@H](CO[Si](C)(C)C(C)(C)C)[C@@H](O)[C@H]2O[Si](C)(C)C(C)(C)C)c(=O)n(Cc2nn[nH]n2)c1=O ; result: 19 µM
COc1cc(Cc2cnc(/N=C3\C(=O)N(CN4CCN(c5cccc(Cl)c5)CC4)c4ccc(F)cc43)nc2N)cc(OC)c1OC ; method: XTT ; result: 104 µg/mL
Nc1ccn([C@H]2O[C@@H](CO)C=C2F)c(=O)n1 ; result: >100 µM
COC1=C(C2=C(Cl)C(=O)c3ccccc3C2=O)C(=O)c2ccc3c(c2C1=O)C=C[C@@](C)(CCC=C(C)C)O3 ; method: MTT ; result: 5.4 µM
Cc1ccc(Cl)cc1Nc1nc(C(F)(F)F)ccc1C(=O)NN1CCN(c2cccc(Cl)c2)CC1 ; method: MTT ; result: >50 µM
O=c1ccn([C@@H]2C[C@@H](F)[C@H](CO)O2)c(=O)[nH]1 ; result: >100 µM
COc1cc(Cc2cnc(/N=C3\C(=O)N(CN4CCN(c5ccc(Cl)cc5)CC4)c4ccc(F)cc43)nc2N)cc(OC)c1OC ; method: XTT ; result: 95.6 µg/mL
Nc1nc2c(ncn2[C@@H]2O[C@@H](CO)C=C2F)c(=O)[nH]1 ; result: >100 µM
Cc1cn([C@@H]2O[C@H](CO)[C@@H](O)[C@@H]2O)c(=O)n(C)c1=O ; result: >500 µg/mL
Nc1nc(=O)n([C@H]2C=C[C@@H](OCP(=O)(O)O)O2)cc1I ; result: >100 µg/mL
CO[C@H]1N([C@H]2C[C@H](F)[C@@H](CO)O2)C(=O)NC(=O)[C@]1(C)Cl ; method: XTT ; result: >800 µM
Nc1nc2c(ncn2COCCO)c(=O)[nH]1 ; result: >200 µg/mL
OC[C@@H]1C[C@H](n2cnc3c(=S)nc[nH]c32)[C@@H](O)[C@H]1O ; result: >100 µM
COc1ccc2c(c1)C(O)=C(C1=C(Cl)C(=O)c3ccccc3C1=O)C(=O)C2=O ; method: MTT ; result: 5.5 µM
CCN(CC)CN1C(=O)/C(=N\c2ncc(Cc3cc(OC)c(OC)c(OC)c3)c(N)n2)c2cc(F)ccc21 ; method: XTT ; result: 116 µg/mL
CCCCCCCN1C=Cc2nccc3cc(OC)c(OC)c1c23 ; result: 3.8 µM
CO[C@@H]1N([C@H]2C[C@H](F)[C@@H](CO)O2)C(=O)NC(=O)[C@@]1(C)I ; method: XTT ; result: 12.2 µM
Cc1cn([C@@H]2C[C@@H](F)[C@H](CO)O2)c(=O)[nH]c1=O ; result: >100 µM
Nc1nc2c(ncn2[C@H]2CC[C@@H](CO)O2)c(=O)[nH]1 ; result: >10 µM
Cc1cc2c(cc1Cl)Sc1ncc(C)n1S2(=O)=O ; result: >200 µM
O=c1[nH]cnc2c1ncn2[C@H]1O[C@@H](CO)C=C1F ; result: >100 µM
Clc1ccccc1C1SCc2nc3ncccc3n21 ; result: 83.9 µM
COC1=C(C2=C(Cl)C(=O)c3ccccc3C2=O)C(=O)c2cc(OC)ccc2C1=O ; method: MTT ; result: 2.5 µM
O=C(O)CNC(=O)c1ccccc1SSc1ccccc1C(=O)NCC(=O)O ; result: >200 µM
COC1=C(C2=C(C3=C(O)C(=O)c4ccccc4C3=O)C(=O)c3ccccc3C2=O)C(=O)c2ccc3c(c2C1=O)C=CC(C)(C)O3 ; method: MTT ; result: 17 µM
CC(=O)OCCOCCN1C(=O)c2cc(-c3ccccc3)sc2N(Cc2ccccc2)S1(=O)=O ; result: >50 µg/mL
Cc1cc(Cl)cc2c1S(=O)(=O)N=C(C(=O)c1ccc(Cl)cc1)S2 ; method: XTT ; result: >1000 µM
CC(=O)Sc1ccccc1C(=O)NCCC(N)=O ; method: XTT ; result: >100 µM
COC(=O)Cn1c(=O)c(C)cn([C@H]2C=C[C@@H](CO[Si](C)(C)C(C)(C)C)O2)c1=O ; result: 28 µM
Nc1nc(F)nc2c1ncn2[C@@H]1O[C@@H](CO)C=C1F ; result: >100 µM
O=C(C1=NS(=O)(=O)c2ccc(Cl)cc2S1)c1ccc(Cl)c(Cl)c1 ; method: XTT ; result: 124 µM
Clc1cccc(Cl)c1C1SCc2nc3ncccc3n21 ; result: 160 µM
O=P(O)(O)OP(=O)(O)OP(=O)(O)OP(=O)(O)O ; method: MTT ; result: >100 µg/mL

A second listing of 10 rows from above:

{"compound": "CCOC(=O)C1=C(C)NC(=O)NC1c1ccccc1", "result": ">5 µM"}
{"compound": "Nc1nc(F)nc2c1ncn2[C@@H]1O[C@@H](CO)C=C1F", "result": ">100 µM"}
{"compound": "COc1nc(F)nc2c1ncn2[C@H]1C[C@H](N=[N+]=[N-])[C@@H](CO)O1", "method": "MTS", "result": ">100 µM"}
{"compound": "CNOC(=O)Cn1c(=O)c(C)cn([C@@H]2O[C@H](CO[Si](C)(C)C(C)(C)C)[C@@H](O[Si](C)(C)C(C)(C)C)[C@H]2O)c1=O", "result": "18 µM"}
{"compound": "CCC(C)[C@@H](C(=O)O)N(C)C(=O)c1ccccc1SSc1ccccc1C(=O)N(C)[C@H](C(=O)O)C(C)CC", "result": ">100 µM"}
{"compound": "Nc1nc2c(ncn2[C@@H]2O[C@@H](CO)C=C2F)c(=O)[nH]1", "result": ">100 µM"}
{"compound": "O=c1ccn([C@@H]2O[C@@H](CO)C=C2F)c(=O)[nH]1", "result": ">100 µM"}
{"compound": "O=C1c2cc(-c3ccccc3)sc2N(Cc2ccccc2)S(=O)(=O)N1CCOCCO", "result": "48 µg/mL"}
{"compound": "C=Cc1cn([C@H]2C=C[C@@H](OCP(=O)(O)O)O2)c(=O)[nH]c1=O", "result": "96 µg/mL"}
{"compound": "COc1ccc2c(c1)C(=O)C(C1=C(Cl)C(=O)c3ccccc3C1=O)=C(Cl)C2=O", "method": "MTT", "result": "5.7 µM"}

Lines come from different laboratories, so protocols vary. CCn is the concentration with n% toxicity to the cells.